Data as given in PubChem BioAssay AID504761 (Drosophila RNAi Screening Center, 2011)
The deposit covers about 22,000 reagents; shown is a random part of those that have a named target and a result. In the full data, 116 (0.52%) were called active. 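Calls depend on retest data that are not deposited; infection was ranked per plate without normalising between plates; the unit of the infection score is not given.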 The raw values are shown without normalisation. The record does not give: the amount of reagent, the time to read-out.

- Assay: 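Insect host genes that dengue virus relies on to spread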 (primary screen)
- System: D.Mel-2 cells from Drosophila
- Reagents: long dsRNA against Drosophila genes
- Challenge: infection with dengue virus type 2; dose and infection time not stated
- Measurement: 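Per well on two replicate plates, imaging gave the percent of cells positive for viral envelope protein, ranked by infection, and a nuclear count of cells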
- Direction: infection score: higher = more virus-infected cells; cell count: higher = more cells in the well
- Active means: 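Low infection ranks in the two replicates (chance level up to 0.065) followed by a retest with a 1.5-fold or larger significant decrease, p below 0.05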
- Meaning of the calls: active = confirmed: knock-down lowers infection; inactive = not picked or not confirmed

gene	amplicon	infection score, replicate 1	infection score, replicate 2	cell count, replicate 1	cell count, replicate 2	Outcome
ETHR	DRSC15915	16.7	8.91	6205	5846	inactive
ETHR	DRSC29606		13.7	325	2142	inactive
CG13041	DRSC09922	1.83	4.79	5941	5800	inactive
CG13041	DRSC26793	8.05	13.5	6645	6596	inactive
Pkd2	DRSC02962	7.09	15.8	4526	2626	inactive
Pkd2	DRSC27522	6.23	17.9	6586	6303	inactive
CG12115	DRSC17811	10.6	35.6	5691	6114	inactive
CNBP	DRSC04116	7.76	11.6	5861	5731	inactive
CNBP	DRSC21317	0.9	10.5	5877	6078	inactive
CNBP	DRSC29556	19.4	16	3278	5907	inactive
CG9632	DRSC16528	12.6	24.1	6457	4715	inactive
CG6621	DRSC16076	7.61	4.35	6522	5885	inactive
CG6621	DRSC26979	14	2.26	6386	6459	inactive
CG14811	DRSC17962			384	392	inactive
CG13954	DRSC06442	1.22	4.45	6542	6422	inactive
CG13954	DRSC27499	12.3	9.42	5760	6805	inactive
CG32847	DRSC22901	1.6	2.06	5566	5641	inactive
CG12133	DRSC06108	6.39	9.55	6715	6316	inactive
CG12133	DRSC25602	11.8	16	6492	6491	inactive
TTLL1A	DRSC20121	1.64	0.16	6589	6940	inactive
Fib	DRSC04614	13.1	1.79	2067	726	inactive
CG40006	DRSC03787	2.57	4.72	6253	5951	inactive
CG40006	DRSC03809	4.3	2.61	6368	6204	inactive
CG40006	DRSC03814	0.28	0.11	6745	6440	inactive
CG40006	DRSC03817	6.54	7.05	6084	5969	inactive
